Several values for one entry are separate records, joined by “and”; a condition that tells them apart may be missing. Equal values may be shown once.
Experiments:
[1] = test system: A/dk/VN/NCVD-680/2011 (wildtype NA) in MDCK-SIAT1 cells
[2] = biological target: NA of A/California/07/2009 (Influenza A virus (A/California/07/2009(H1N1)), UniProt C3W6G3)
[3] = biological target: NA of 2.3.4/R reassortant HPAI A(H5N1) viruses (NA genes grouped with clade 2.3.2.1) (Influenza A virus, UniProt A0A0C5AM80)
[4] = biological target: NA of A/Vietnam/1203/2004, clade 1 (Influenza A virus, UniProt Q6DPL2)
[5] = biological target: NA of A/North Carolina/39/2009 (H275Y) (Influenza A virus, UniProt C3W6G3, H275Y)
[6] = biological target: NA of clade 2.3.4 HPAI A(H5N1) viruses (Influenza A virus, UniProt I6PZ30)
[7] = biological target: NA of clade 1.1 HPAI A(H5N1) viruses (Influenza A virus, UniProt Q6DPL2)

Row | Compound | EC90 [1] [nM] | IC50 [2] [nM] | IC50 [3] | IC50 [4] [nM] | IC50 [5] [nM] | IC50 [6] | IC50 [7]
1 | NC(=O)c1nc(F)c[nH]c1=O | 3200 | – | – | – | – | – | –
2 | peramivir | – | 0.05 | 0.28 nM to 0.39 nM (2×) and 0.33 nM | 0.17 | 16.8 | 0.16 nM to 0.52 nM (2×) and 0.29 nM and 0.31 nM | 0.07 nM to 0.31 nM (2×) and 0.13 nM and 0.14 nM

Source: paper PMC3840871
